{"sequences": {"note": "Chains of the proteins cited; added tags and fusions are not shown. Chains listed by the source or under a name are the forms on record and can include a tag or linker.", "human mAb 2F5 (human), light, as listed by the source, chain 2 of 2": "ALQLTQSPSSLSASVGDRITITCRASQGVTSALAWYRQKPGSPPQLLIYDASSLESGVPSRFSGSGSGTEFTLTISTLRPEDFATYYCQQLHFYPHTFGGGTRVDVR", "human mAb 2F5 (human), heavy, as listed by the source, chain 1 of 2": "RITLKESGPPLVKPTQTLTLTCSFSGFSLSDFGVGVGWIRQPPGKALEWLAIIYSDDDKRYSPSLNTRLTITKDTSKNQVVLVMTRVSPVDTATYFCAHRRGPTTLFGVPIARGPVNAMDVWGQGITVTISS"}, "source": "paper PMC3164629", "target": "human mAb 2F5 (human)", "assay": "SPR"}
{"substance": "CON-S gp140CFI Env, natively deglycosylated with PNGase F 500 U per µg", "values": [{"measurement": "fold enhancement of Kd against WT glycosylated CON-S gp140", "value": 4, "unit": "fold"}]}
